Assay [1] concerns P. falciparum Dd2 (chloroquine-resistant). As to the kind of experiment: microbe, parasite or virus in culture. The note with it: Plasmodium falciparum.
Assay [2] shares this test system. The note with it: Dd2 strain; for Mean IC50: 48 h, SYBR Green I.

Converted amounts (≈) assume the structure as drawn. Like-named read-outs stand apart in the source and are kept apart here.

The term IC50 denotes the concentration at which inhibition is half-maximal.

For `CCN(CC)CCCC(C)Nc1ccnc2cc(Cl)ccc12` (stereo not drawn) [Chloroquine], the IC50 in assay [1] (DD2, 48 h, read-out: Mean IC50) is 0.15 µg/mL (≈ 0.469 µM); in assay [1] (DD2, read-out: Activity class (superscript on mean IC50)) it was less than 10 µg/mL.
Take `O=C1C(O)=C(Nc2ccccc2)C(=O)c2ccccc21` [4a]: in assay [2], the “Activity class (superscript on mean IC50)” value is listed as “b (moderate activity^b (10 < IC50 < 100 μg/ml))” and the “Mean IC50” value was found to be 11.79 µg/mL.
For `COc1ccc(NC2=C(O)C(=O)c3ccccc3C2=O)cc1` [4c] the same measures were “b (moderate activity^b (10 < IC50 < 100 μg/ml))” and 10.10 µg/mL.

For the origin of these results see paper PMC6300878, “In vitro antiplasmodial activity, pharmacokinetic profiles and interference in isoprenoid pathway of 2-aniline-3-hydroxy-1.4-naphthoquinone derivatives” (Malaria Journal, 2018).
